Results reported in patent US5159002A, “Method for purifying dermostatin A and dermostatin B” (Xechem Inc., priority 1990, dated 1992).

Tested on: H9 cells
Experiment: Survival/viability of HIV-infected H9 cells (trypan blue exclusion), % control
[1] = Table VIII, conc. 5 (g/ml as printed), 5760 min
[2] = Table VIII, conc. 10 (g/ml as printed), 5760 min
[3] = Table VIII, conc. 20 (g/ml as printed), 5760 min

Structure (SMILES) | Cell Survival (% Control) [1] [% Control] | Cell Survival (% Control) [2] [% Control] | Cell Survival (% Control) [3] [% Control] | Cell Survival (% Control) (Table IV, conc. 0.01 (g/ml as printed), added with HIV, 4 days) | Cell Survival (% Control) (Table IV, conc. 0.1 (g/ml as printed), added with HIV, 4 days) | Cell Survival (% Control) (Table IV, conc. 10 (g/ml as printed), added with HIV, 4 days)
CC(C)C1OC(=O)/C=C/C=C/C=C/C=C/C=C/CC(O)C(C)C(O)CC(O)CC(O)CC(O)CC(O)CC(O)CC(O)/C=C/C1C (centres unmarked) [Mycoticin A, reference compound] | 0 | 4 | 14 |  |  | 
CCC(C)C1OC(=O)/C=C/C=C/C=C/C=C/C=C/CC(O)C(C)C(O)CC(O)CC(O)CC(O)CC(O)CC(O)CC(O)/C=C/C1C (centres unmarked) [Faeriefungin B] | 0 | 12 |  |  |  | 
CCC(C)C1OC(=O)/C=C/C=C\C=C\C=C\C=C/CC(O)C(C)C(O)CC(O)CC(O)CC(O)CC(O)CC(O)CC(O)/C=C/C1C (centres unmarked) [Mycoticin B] | 0 | 10 | 15 |  |  | 
C[C@@H]1[C@H](O)[C@@H](C)/C=C/C=C/CC/C=C/C=C/C=C/C=C/[C@H](O[C@@H]2O[C@H](C)[C@@H](O)[C@H](N)[C@@H]2O)C[C@@H]2O[C@](O)(C[C@@H](O)C[C@@H](O)[C@H](O)CC[C@@H](O)C[C@@H](O)CC(=O)O[C@H]1C)C[C@H](O)[C@H]2C(=O)O [Amphotericin A, reference compound] |  |  |  | 62 | 80 | 88
